Results of unrelated studies side by side (data: NIAID ChemDB).

All rows: whole-cell or culture tests; organism: HIV-1; endpoint: fold resistance

An empty or dashed field is not shown. Rows are shuffled and stem from different studies. Fold resistance has wild type as its base.

structure,method,changes,strain or isolate,cell line,result
O=C1Nc2ccc(Cl)cc2[C@@](C#CC2CC2)(C(F)(F)F)N1,-,RT-L100I,-,-,3.16
Cc1ccc(C2CC2)c(-c2ccc3c(c2C)CCCO3)c1[C@H](OC(C)(C)C)C(=O)O,luminescence,INSTI-resistant (IN-G140S Q148H),NL4-3,MT-4,1
CCc1c(Sc2ccccc2)n(COCc2ccccc2)c(=S)[nH]c1=O,syncytia,Nevirapine resistant (RT Y181C),IIIB,CEM,113
CCc1cc(C#N)cc(C(=O)c2cc(Cl)ccc2OCC(=O)Nc2ccc(S(N)(=O)=O)cc2C)c1,β-galactosidase,RT-K103N V108I,HXB2,HeLa + HELA CD4+,~1
Cc1ccc(C2CC2)c(-c2ccc3c(c2)CCCO3)c1[C@H](OC(C)(C)C)C(=O)O,luminescence,INSTI-resistant (IN-Q148H),NL4-3,MT-4,1
Cc1cc(C#N)cc(C(=O)c2cc(Cl)ccc2OCC(=O)Nc2ccc(S(N)(=O)=O)cc2C)c1,β-galactosidase,RT-V106I,HXB2,HeLa + HELA CD4+,~1
CCOCn1c(Cc2ccccc2)c(CC)c(=O)[nH]c1=O,syncytia,RT-K103N,IIIB TIBO R82913-resistant (RT K103N),CEM,18.1
Cc1cc(S(N)(=O)=O)ccc1NC(=O)COc1ccc(Cl)cc1C(=O)c1cccc(C#N)n1,β-galactosidase,RT-V106A Y181C,HXB2,HeLa + HELA CD4+,~1
CC(C)=CCOc1cc(NC(=S)c2ccsc2C)ccc1Cl,cytopathic effect / XTT,RT-V179D,NL4-3 (RT V179D),CEM + CEM-SS,1
CCOCn1c(Sc2ccccc2)c(CC)c(=O)[nH]c1=S,syncytia,RT-Y188H,IIIB,CEM,>2730
O=C1Nc2ccc(Cl)cc2[C@@](/C=C/C2CC2)(C(F)(F)F)N1,-,RT-Y188C,-,-,<6
CC(=O)c1ccc(C)cc1NC(C(N)=O)c1c(Cl)cccc1Cl,cytopathic effect / XTT,RT-Y181C,UC040-R (RT-Y181C),CEM + CEM-SS,>100
C/C=C/CSc1cc(NC(=S)c2ccsc2C)ccc1Cl,p24,RT-D67N K70R T215Y K219Q,4xAZT(RT-D67N K70R T215Y K219Q),CEM + CEM-SS,0.5
CC(C)=CCOc1cc(NC(=S)c2ccoc2C)ccc1Cl,cytopathic effect / XTT,RT-K103N Y181C,Pyridinone-resistant (RT Y181C K103N),CEM + CEM-SS,>200
CCOCn1c(Sc2ccccc2)c(C(C)C)c(=O)[nH]c1=S,syncytia,RT-L100I,IIIB (TIBO 82150) (RT-L100I),CEM,3.33
Cc1cc(S(N)(=O)=O)ccc1NC(=O)COc1ccc(Cl)cc1C(=O)c1cc(F)cc(F)c1,β-galactosidase,RT-Y188C,HXB2,HeLa + HELA CD4+,~1
CCC(=O)c1ccc(F)c([C@@H]2C[C@@H]2NC(=O)Nc2ccc(C#N)cn2)c1O,β-galactosidase / luminescence,NNRTI-resistant (RT L100I),LAI,TZM-bl,7.4